Laboratory results from patent publication US20230303666A1, “Cell-free antibody engineering platform and neutralizing antibodies for sars-cov-2” (published 2023).
Numbering of substitutions follows the chain as printed.

B1: SR12t6 (VHH)
VHH: QVQLVVSGGGLVQAGDSLRLSCAASGAIVHVFAMGWFRQAPGKEREFVASINLDNDVTNYADSVKGRFTISRDDARNTVYLQMNSLKPEDTAVYYCNATIFTDSGLGDYWGRGTQVTVSS
B2: SR12t9 (VHH)
VHH: B1 VHH with G9R, A23V, K43E, V57A, N59I, D73G, G105D

Target: SARS-CoV-2 S deleted of the C-terminal 27 a.a. and fused to the NRVRQGYS sequence of HIV-1 (pCMV-SAR (SARS-CoV-2), P0DTC2)
Experiment: cell-based or functional assay

Binder	Pseudovirus neutralization % inhibition, 5 nM VHH, replicate 1 [%]	Pseudovirus neutralization % inhibition, 5 nM VHH, replicate 2 [%]	Pseudovirus neutralization % inhibition, 50 nM VHH, replicate 1 [%]	Pseudovirus neutralization % inhibition, 50 nM VHH, replicate 2 [%]	Pseudovirus neutralization % inhibition, 500 nM VHH, replicate 1 [%]	Pseudovirus neutralization % inhibition, 500 nM VHH, replicate 2 [%]
B1	7.32	0.157	11.4	9.26	44.7	35.3
B2	-1.72	-0.52	15.5	9.91	58.2	46.5
